Reference: PubChem BioAssay AID624099 (ICCB-Longwood, 2012)
Shown is a random part of about 21,000 reagents. 497 of them (2.4%) were called active. 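Higher z means weaker E2 silencing; only reporter increases were scored, and knock-downs that hurt cell survival may mask genuine repressor factors.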 Entries without a mark were called inactive.

Test: 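Host factors E2 relies on to silence an HPV18 LCR reporter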 (primary screen)
Cell system: human C33A cervical carcinoma cells (HPV-negative) stably expressing BPV1 E2 and an HPV18 LCR luciferase reporter
Reagent: siRNA pool against human genes, 40 nM
Timing: 72 h
Measurement: 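HPV18 LCR reporter light per well, converted to plate-wise z-scores that exclude control wells, and averaged over triplicate plates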
Direction: mean z-score and z-score: higher = stronger reporter signal, weaker E2 silencing
Call rule: 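Mean z ≥ 2 together with z ≥ 2 in two or more of the three replicates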

The first 2 entries, ahead of the listing:
gene,mean z-score,"z-score, replicate A","z-score, replicate B","z-score, replicate C"
TPTEP1,0.48,1.1,0.15,0.21
HEMGN,0.79,1.12,0.85,0.39

Main list, from the first entry:
gene,mean z-score,"z-score, replicate A","z-score, replicate B","z-score, replicate C"
TPTEP1,0.48,1.1,0.15,0.21
HEMGN,0.79,1.12,0.85,0.39
CHIAP2,0.35,0.01,0.39,0.65
KRT82,-0.14,-0.25,-0.34,0.18
PLEKHA4,2.01,1.85,2.34,1.86
TPRXL,0.51,0.88,0.46,0.2
GPAA1,-0.78,-0.94,-0.73,-0.66
ABCA6,-0.84,-1.02,-0.74,-0.76
CYBB,-0.08,0.06,-0.02,-0.29
OGFRP1,0.16,0.36,0.67,-0.56
GNRHR2,0.57,0.24,0.74,0.74
LCE4A,0.04,-0.1,0.18,0.03
ATP12A,-0.48,-0.3,-0.51,-0.62
STARD8,0.25,0.36,0.06,0.32
CYTH4,-0.7,-0.52,-0.8,-0.79
USP34,-1.44,-1.45,-1.59,-1.28
SIX5,0.68,1.05,1.04,-0.04
UGGT1,0.27,0.78,0.29,-0.27
UCN,-1.43,-1.51,-1.45,-1.32
GHRH,-0.54,-0.54,-0.56,-0.53
CRYBA1,0.27,0.24,0.36,0.22
VAV3,-0.66,-0.95,-0.75,-0.28
SPATA31D4,-0.64,-1.14,-0.53,-0.25
